Compound potency records, mixed from different reports. Data source: NIAID ChemDB in PubChem.

Common to all: cytotoxicity tests; cell line: MOLT-4; endpoint: CC50

Rows are shuffled and stem from different studies. CCn is the concentration with n% toxicity to the cells.

{"structure": "CCNC(=O)c1cc(Cl)ccc1NC(=O)C12CC3CC(CC(C3)C1)C2", "value": "18.6 µM"}
{"structure": "NC(=O)c1csc(C2OC(CO)C(O)C2O)c1", "value": "2.9 µM"}
{"structure": "Cn1cc(C(=O)O)c(=O)c2cc(F)c(N3CC=C(c4ccccc4)CC3)c(C(F)(F)F)c21", "value": "1.6 µM"}
{"structure": "NNC(=O)c1cc(Cl)ccc1NC(=O)C12CC3CC(CC(C3)C1)C2", "value": "8.2 µM"}
{"structure": "Nc1c(S(=O)(=O)O)cc(Nc2ccc(Nc3nc(Cl)nc(Nc4ccccc4S(=O)(=O)O)n3)c(S(=O)(=O)O)c2)c2c1C(=O)c1ccccc1C2=O", "value": ">10 µM"}
{"structure": "CCOCn1c(Sc2cc(C)cc(C)c2)c(CC)c(=O)[nH]c1=O", "value": ">100 µM"}
{"structure": "Cc1ccc(NC(=O)C23CC4CC(CC(C4)C2)C3)c(C(=O)N/N=C/c2ccc(C)o2)c1", "value": "45.6 µM"}
{"structure": "NOCc1c(F)cccc1Cl", "value": "43.5 µg/mL"}
{"structure": "CCCNC(=O)c1cc(C)ccc1NC(=O)C12CC3CC(CC(C3)C1)C2", "value": "51.1 µM"}
{"structure": "OC[C@@H]1[C@@H](O)[C@H](O)[C@@H](O)CN1C/C=C/c1ccccc1", "value": ">400 µg/mL"}
{"structure": "O=C(O)P(=O)(O)O", "value": "433 µg/mL"}
{"structure": "Nc1nc2c(ncn2[C@H]2CO[C@@H](CO)O2)c(=O)[nH]1", "value": ">500 µM"}
{"structure": "NC(=O)c1c[se]c([C@@H]2O[C@H](CO)[C@@H](O)[C@H]2O)n1", "value": "0.6 µM"}
{"structure": "COc1ccccc1N1CCN(c2c(F)cc3c(=O)c(C(=O)O)cn(C4CC4)c3c2OC(F)F)CC1", "value": "6.7 µM"}
{"structure": "Nc1nc(=O)n([C@@H]2CC[C@H](CO)O2)cc1F", "value": "22 µM"}
{"structure": "CC(=O)c1ccc(C)cc1NC(C(N)=O)c1c(Cl)cccc1Cl", "value": "66 µM"}
{"structure": "c1cc(CN2CCCNCCNCCCNCC2)ccc1CN1CCCNCCNCCCNCC1", "value": ">100 µg/mL"}
{"structure": "NCC(=O)Nc1ccc(Cl)cc1C(=O)c1ccc[nH]1", "value": "7.9 µg/mL"}
{"structure": "Nc1nc(NC2CC2)c2ncn([C@H]3C=C[C@@H](CO)C3)c2n1", "value": "20 µM"}
{"structure": "CCCNC(=O)c1cc(OC)c(OC)cc1NC(=O)C12CC3CC(CC(C3)C1)C2", "value": "36.9 µM"}
{"structure": "O=S(=O)(O)c1cc(NS(=O)(=O)c2ccc(-c3ccc(S(=O)(=O)Nc4cc(S(=O)(=O)O)c5cccc(S(=O)(=O)O)c5c4)cc3)cc2)cc2c(S(=O)(=O)O)cccc12", "value": ">500 µM"}
{"structure": "Nc1nc2c(ncn2[C@H]2C=C[C@@H](CO)O2)c(=O)[nH]1", "value": "35 µM"}
{"structure": "O[C@H]1[C@H](O)[C@@H](O)CN2CC[C@H](O)[C@H]12", "value": ">500 µg/mL"}
{"structure": "CN=C1CN=C(c2ccc[nH]2)c2cc(Cl)ccc2N1", "value": "2 µM"}
{"structure": "NNC(=O)c1cc(Br)ccc1NC(=O)C12CC3CC(CC(C3)C1)C2", "value": "4 µM"}
{"structure": "CC(C)(C)OC(=O)[C@@H]1CCCN1C[C@@H](O)[C@H](Cc1ccccc1)NC(=O)[C@H](CC(N)=O)NC(=O)OCc1ccccc1", "value": "214 µg/mL"}
{"structure": "Nc1ccn([C@H]2CC[C@@H](CO)O2)c(=O)n1", "value": "0.6 µM"}
{"structure": "CC(C)=CCN1Cc2cccc3[nH]c(=S)n(c23)C[C@@H]1C", "value": "518 µM"}
{"structure": "CCCN(C)C(=O)Oc1nsnc1-c1c(Cl)cccc1Cl", "value": "215 µM"}
{"structure": "CCNC(=O)c1cc(OC)c(OC)cc1NC(=O)C12CC3CC(CC(C3)C1)C2", "value": "26.4 µM"}
{"structure": "O=C(CCCCCCCCCCC(=O)Nc1cc(S(=O)(=O)O)cc2cc(S(=O)(=O)O)cc(O)c12)Nc1cc(S(=O)(=O)O)cc2cc(S(=O)(=O)O)cc(O)c12", "value": ">500 µM"}
{"structure": "CCOCn1c(Cc2ccccc2)c(C(C)C)c(=O)[nH]c1=O", "value": "181 µM"}
{"structure": "c1cc(CN2CCNCCNCCNCC2)cc(CN2CCNCCNCCNCC2)c1", "value": "17 µM"}
{"structure": "Nc1nc(=O)n([C@@H]2CS[C@H](CO)O2)cc1F", "value": ">100 µM"}
{"structure": "Nc1nc2c(ncn2[C@@H]2C[C@H](CO)[C@H]2CO)c(=O)[nH]1", "value": "50 µM"}

Repeating the final 4 entries:

structure,value
CCOCn1c(Cc2ccccc2)c(C(C)C)c(=O)[nH]c1=O,181 µM
c1cc(CN2CCNCCNCCNCC2)cc(CN2CCNCCNCCNCC2)c1,17 µM
Nc1nc(=O)n([C@@H]2CS[C@H](CO)O2)cc1F,>100 µM
Nc1nc2c(ncn2[C@@H]2C[C@H](CO)[C@H]2CO)c(=O)[nH]1,50 µM